For at least one entry, the source does not settle the construct or the ends of the probe. Protein sequences can lack the tags named with them.
Target: T1, OmpR (unglycosylated) (Salmonella enterica) (UniProt P0AA20)
T1 sequence (looked up, limits assumed): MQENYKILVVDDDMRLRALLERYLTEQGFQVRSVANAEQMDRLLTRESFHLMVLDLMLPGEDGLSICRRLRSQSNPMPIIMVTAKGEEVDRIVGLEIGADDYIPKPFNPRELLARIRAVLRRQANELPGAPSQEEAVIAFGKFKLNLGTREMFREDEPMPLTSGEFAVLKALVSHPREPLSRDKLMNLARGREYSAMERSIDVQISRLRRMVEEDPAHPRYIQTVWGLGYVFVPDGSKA
Assay: EMSA
Details: recombinant protein, protein details: His, label: 5' Alexa-fluor (forward primer), probe letters rebuilt from the primers and the genome

Question: Does “TTATTACCCTCATTGGTTTTTTTATATGACACCTGCCACTGCCGTCAATAAATTCCGTCAATAAAACTTTACAGAAATATTGATGAGAGTTTGGTGTCTTTATGTGTCTGACAGGCATCTTTCCATTCAAACTAACGTTTCGCTACCGTGAAAGTGCTACAAAGATAAAGATTTGGTTTCAAAAGGAAATAATATGTAAACAAATGTTATTTTTACGGAACTTTGTGAACAACGTCAAACTTCCCCTGAGTTATCGTTTTGATTTGATCGTTTTTCTTTTATATCCATGATTTTATTGAATTTATTTGTTCGCGACACCGTTGTGCCTGAAAAAGCAGCTGACGAGCTATTTCATAAAAATAGCCATTTAGAAGTCTGGATGTCTGAAATTGTGGTGAAAAATTGTGCTATTAGAGCAGAAAAATCTAATCCGCAATAAAATTAAGGATTAATTTTTATGTGTAAATATTTTCGTGAAATATACAGTAACAAGATGTGGTAATTCAGAGGGTTGTAATTAATTTTATTTACTTATTGATAATAAAACTGACATTCAGGCGAAAAAAAAGGCCAGCATAGCTGGCCTTGAGTGTGACGTAAAAA (double strand) [ompF promoter region]” bind?
Answer: Result: binds

From paper PMC10239501
